Results of unrelated studies side by side (data: NIAID ChemDB).

Shared fields: host cell toxicity; cells: CEM; endpoint: CC50

Neighbouring rows are from separate reports.

| SMILES | method | value |
|---|---|---|
| CC1(CO)CCC(Cn2cnc3c(=O)[nH]c(N)nc32)C1(C)C |  | >200 µg/mL |
| C=CCNC(=O)NC1=CSC2=NC(=O)C3(NN12)c1ccccc1-c1ccccc13 |  | 70 µM |
| CNCC1CC12C1CC3CC(C1)CC2C3 |  | 4 µg/mL |
| Cc1cccc(N2C(=O)CSC2c2c(C(F)(F)F)ccc(Cl)c2F)n1 |  | 79.1 µM |
| O=C(O)CCCCCNC(=O)c1ccccc1SSc1ccccc1C(=O)NCCCCCC(=O)O |  | 80 µM |
| O=C1O[C@](C#CC2CC2)(C(F)(F)F)c2cc(Cl)ccc2N1CN1CCN(c2cccc(Cl)c2)CC1 |  | >10 µM |
| Cc1ccnc2c1N(C(=O)CNC(=O)c1cnccn1)C(=O)c1cccnc1N2C1CC1 | XTT | >200 µM |
| CCCCCCCCCCCCCC(=O)OCC/C(SS/C(CCOC(=O)CCCCCCCCCCCCC)=C(\C)N(C=O)Cc1cnc(C)nc1N)=C(/C)N(C=O)Cc1cnc(C)nc1N |  | >100 µM |
| CC[C@H](C)[C@@H](CCC(=O)O)NC(=O)c1ccccc1SSc1ccccc1C(=O)N[C@H](CCC(=O)O)[C@@H](C)CC |  | 60 µM |
| Nc1nc2c(ncn2[C@H]2C=C[C@@H](CO)C2)c(=O)[nH]1 | XTT | 189 µg/mL |
| COC1=C(C2=C(Cl)C(=O)c3ccccc3C2=O)C(=O)c2ccc3c(c2C1=O)C=C[C@@](C)(CCC=C(C)C)O3 | MTT | 5.4 µM |
| Fc1ccccc1C1SCc2nc3ccccc3n21 |  | >126 µM |
| O=c1[nH]cnc2c1ncn2[C@H]1CC[C@@H](CCP(=O)(O)O)O1 |  | >200 µM |
| Cc1ccnc2c1N(C(=O)CNNC(=O)c1ccncc1)C(=O)c1cccnc1N2C1CC1 | XTT | >1000 µM |
| S=C1NNC2(C(=S)N1)c1ccccc1-c1ccccc12 |  | 110 µM |
| O=C(Nc1cccc(-c2nc3cc(C(=O)Nc4ccc(S(=O)(=O)O)c5cc(S(=O)(=O)O)cc(S(=O)(=O)O)c45)ccc3[nH]2)c1)Nc1cccc(-c2nc3cc(C(=O)Nc4ccc(S(=O)(=O)O)c5cc(S(=O)(=O)O)cc(S(=O)(=O)O)c45)ccc3[nH]2)c1 |  | 64.8 µM |
| CC(C)C(=O)Oc1ccc(COP(=O)(OCc2ccc(OC(=O)C(C)C)cc2)OP(=O)([O-])OC[C@@H]2CC[C@H](n3ccc(=O)[nH]c3=O)O2)cc1 |  | >250 µM |
| CC(=O)Oc1ccccc1COP(=O)(OCc1ccccc1OC(C)=O)OC[C@@H]1C=C[C@H](n2cc(C)c(=O)[nH]c2=O)O1 |  | 21 µM |
| O=C1N=C2SC=C(NC(=S)Nc3ccccc3)N2NC12c1ccccc1-c1ccccc12 |  | 66 µM |
| CCn1cc(C(=O)O)c(=O)c2cc(F)c(N3CCN(c4ccccc4OC)CC3)c(OC(F)F)c21 |  | 24 µM |
| O=C(N[C@@H](CC1CCCCC1)C(=O)O)c1ccccc1SSc1ccccc1C(=O)N[C@@H](CC1CCCCC1)C(=O)O |  | 23 µM |
| O=c1ccn([C@H]2C=C[C@@H](CO)O2)c(=O)[nH]1 |  | >250 µM |
| NC1CC12C1CC3CC(C1)CC2C3 |  | 32 µg/mL |
| COC(=O)CC(OP(=O)(OC[C@@H]1C=C[C@H](n2cc(C)c(=O)[nH]c2=O)O1)OC(CC(=O)OC)c1ccc(OC(C)=O)cc1)c1ccc(OC(C)=O)cc1 |  | 19 µM |
| CO[C@H]1N([C@H]2C=C[C@@H](CO)O2)C(=O)NC(=O)[C@]1(C)I | XTT | 66 µM |
| CCOC(=O)C1=C(C)NC(=O)NC1c1ccc(OC)cc1 |  | >5 µM |
| Cc1cn([C@H]2C=C[C@@H](CO)O2)c(=O)[nH]c1=O |  | >250 µM |
| Nc1nc(=O)n([C@H]2C=C[C@@H](CO)O2)cc1F |  | ~100 µM |
| C[N+]1(C)CC2c3cc4c5c6c3-c3c(cc7c8c3C63C[N+](C)(C)CC36C3=C5C(C4)Cc4ccc5cc(c-8c6c5c43)C7)C2C1 |  | >125 µM |
| COc1cccc(F)c1C1SCC(=O)N1c1cccc(C)c1 |  | 39.38 µM |
| NC1=NNC2(C(=O)N1)c1ccccc1-c1ccccc12 |  | 75 µM |
| Cc1cccc(C)c1C1SCC(=O)N1c1cccc(Br)n1 |  | >275 µM |
| Cc1cn([C@@H]2OC3COC4(O)CS(=O)(=O)OC34C2O)c(=O)[nH]c1=O |  | >100 µM |
| COc1cccc(F)c1C1SCC(=O)N1c1nccc(C)n1 |  | >313 µM |
| CCCCCCCCCCCC(=O)Oc1ccc(COP(=O)(OCc2ccc(OC(=O)CCCCCCCCCCC)cc2)OP(=O)([O-])OC[C@@H]2C=C[C@H](n3ccc(=O)[nH]c3=O)O2)cc1 |  | 116 µM |
| COc1ccc2c(c1)OCC1c3cc(O)c(OCC4CCCCC4)cc3OC21 |  | 22.2 µM |
| CC(C)C(=O)Oc1ccc(COP(=O)(OCc2ccc(OC(=O)C(C)C)cc2)OP(=O)([O-])OC[C@@H]2C=C[C@H](n3ccc(=O)[nH]c3=O)O2)cc1 |  | 110 µM |
| Nc1ccn([C@@H]2O[C@H](CO)[C@@H](CO)[C@@H]2F)c(=O)n1 |  | ≥100 µM |
| CCCCCCCCCCCCCC(=O)NCC(OCC)OCC |  | <200 µM |
| Nc1ncnc2c1ncn2[C@H]1C[C@@H](O)[C@H](O)[C@@H]1O |  | 3.99 µM |
| CN(C)CC1CC12C1CC3CC(C1)CC2C3 |  | 23 µg/mL |
| Fc1cccc(C2SCc3nc4ccccc4n32)c1 |  | 67.4 µM |
| COC(=O)C(NC(=O)c1ccccc1SSc1ccccc1C(=O)NC(C(=O)OC)C(=O)OC)C(=O)OC |  | >100 µM |
| COc1ccc2c(c1)OCC1c3cc(OC)c(OCc4ccccc4)cc3OC21 |  | 69.4 µM |
| N#Cc1cccc(C2SCc3nc4ccccc4n32)c1 |  | 38.3 µM |
| COc1c(N2CCN(CN3C(=O)O[C@](C#CC4CC4)(C(F)(F)F)c4cc(Cl)ccc43)CC2)c(F)cc2c(=O)c(C(=O)O)cn(C3CC3)c12 |  | >10 µM |
| Cc1cn([C@@H]2OC(O[Si](C)(C)C(C)(C)C)C3(OS(=O)(=O)C=C3NCCC(=O)OCc3ccccc3)C2O[Si](C)(C)C(C)(C)C)c(=O)n(C)c1=O |  | >250 µM |
| Nc1ncnc2c1ncn2[C@H]1CC[C@@H](CCP(=O)(O)O)O1 |  | >200 µM |
| O=C(NC1(C(=O)O)CCCCC1)c1ccccc1SSc1ccccc1C(=O)NC1(C(=O)O)CCCCC1 |  | 25.6 µM |
| CC1(CO)CCC(Cn2nnc3c(N)nc(N)nc32)C1(C)C |  | 108 µg/mL |
| CO[C@@H]1N([C@H]2C[C@H](F)[C@@H](CO)O2)C(=O)NC(=O)[C@@]1(C)Br | XTT | 9.72 µM |
| O=C(O)CSC1=NNC2(C(=O)N1)c1ccccc1-c1ccccc12 |  | 55 µM |
| CC1(CO)CCC(Cn2nnc3c(Cl)nc(N)nc32)C1(C)C |  | 17 µg/mL |
| C[C@]1(Br)C(=O)NC(=O)N([C@H]2C[C@H](F)[C@@H](CO)O2)[C@@H]1N=[N+]=[N-] | XTT | 100 µM |
| CCn1cc(C(=O)O)c(=O)c2cc(F)c(N3CCN(CN4C(=O)O[C@](C#CC5CC5)(C(F)(F)F)c5cc(Cl)ccc54)CC3)c(F)c21 |  | >10 µM |

For reference, 5 entries again:

| SMILES | method | value |
|---|---|---|
| CN(C)CC1CC12C1CC3CC(C1)CC2C3 |  | 23 µg/mL |
| CC1(CO)CCC(Cn2nnc3c(N)nc(N)nc32)C1(C)C |  | 108 µg/mL |
| CC1(CO)CCC(Cn2nnc3c(Cl)nc(N)nc32)C1(C)C |  | 17 µg/mL |
| COC(=O)CC(OP(=O)(OC[C@@H]1C=C[C@H](n2cc(C)c(=O)[nH]c2=O)O1)OC(CC(=O)OC)c1ccc(OC(C)=O)cc1)c1ccc(OC(C)=O)cc1 |  | 19 µM |
| CO[C@H]1N([C@H]2C=C[C@@H](CO)O2)C(=O)NC(=O)[C@]1(C)I | XTT | 66 µM |

An empty or dashed field is not shown. CCn is the concentration with n% toxicity to the cells.